Results of unrelated studies side by side (data: NIAID ChemDB).

Shared fields: whole-cell or culture tests; agent: HIV-1; read-out: inhibition

Blank or dashed fields: not listed here. Inhibition is in % at the dose shown (toxicity tests: loss of growth or viability). Lines come from different laboratories, so protocols vary.

smiles | strain or isolate | changes | cells | read by | setting | tested at | value
C[C@H]1CC[C@@]2(OC1)O[C@H]1C[C@H]3[C@@H]4CC=C5C[C@@H](O[C@@H]6O[C@H](CO)[C@H](O[C@@H]7O[C@H](CO)[C@@H](O)[C@H](O[C@@H]8OC[C@@H](O)C(O)[C@H]8O)[C@H]7O[C@@H]7O[C@H](CO)[C@@H](O)[C@H](O)[C@H]7O)[C@H](O)[C@H]6O)CC[C@]5(C)[C@H]4CC[C@]3(C)[C@H]1[C@@H]2C | - | - | SupT1 | luciferase / single cycle | pseudotyped | 30 µM | 99.95%
CCCCCCCCCCCCCCCC(=O)NCC1CC(OP(=O)(O)OCC2CC(OP(=O)(O)OCC3CC(O)C(n4cnc5c(N)ncnc54)O3)C(n3cnc4c(N)ncnc43)O2)C(n2cnc3c(N)ncnc32)O1 | IIIB | - | SupT1 + Sup-T1 | syncytia | - | 100 µM | 88.5%
CC(C)(C)NC(=O)[C@@H]1CCCN1C(=O)[C@@H](O)[C@H](Cc1ccccc1)NC(=O)[C@H](CC(N)=O)NC(=O)OCc1ccccc1 | pNL432 | - | MOLT-4 | RT activity | - | 5 µM | 60%
COC(=O)[C@H]1[C@@H]2C[C@@H](O[C@@H]3O[C@H](C)[C@@H](O)[C@H](N)[C@@H]3O)/C=C/C=C/C=C/C=C/C=C/C=C/C=C/[C@H](C)[C@@H](O)[C@H](C)[C@H](C)OC(=O)C[C@H](O)C[C@H](O)[C@@H](O)CC[C@H](O)C[C@H](O)C[C@](O)(C[C@@H]1O)O2 | IIIB | - | H9 | p24 / antigen | - | 10 µg/mL | 43%
COC(=O)CC(c1ccc(OC)c(OC)c1)N1C(=O)c2ccccc2C1=O | JR-FL | - | Macrophage | RT activity | - | 50 µg/mL | 58%
CCN(CC)C(=O)OCC1CN(C(=O)c2cc(OC)c(O)c(OC)c2)CCN1C(=O)c1cc(OC)c(OC)c(OC)c1 | BaL | - | MDM | RT activity | - | 100 µM | 66%
C[C@H]1CC[C@@]2(OC1)O[C@H]1C[C@H]3[C@@H]4CC=C5C[C@@H](O[C@@H]6O[C@H](CO)[C@H](O[C@@H]7O[C@H](CO)[C@@H](O)[C@H](O[C@@H]8OC[C@@H](O)C(O)[C@H]8O)[C@H]7O[C@@H]7O[C@H](CO)[C@@H](O)[C@H](O)[C@H]7O)[C@H](O)[C@H]6O)CC[C@]5(C)[C@H]4CC(=O)[C@]3(C)[C@H]1[C@@H]2C | - | - | SupT1 | luciferase / single cycle | pseudotyped | 30 µM | 99.95%
Cc1ccc(-c2ccc3c(c2)C=C(C(=O)Nc2ccc(C[N+](C)(C)C4CCOCC4)cc2)CCC3)cc1 | CM7 CLADE C | - | PBMC | p24 | - | 1 µM | 97.4%
CCN(CC)C(=O)OCC1CN(C(=O)c2ccccc2)CCN1C(=O)c1ccccc1 | BaL | - | MDM | RT activity | - | 100 µM | 43%
Cc1ccc(C)c(NS(=O)(=O)c2cc(C(=O)NCc3ccccn3)ccc2Cl)c1 | Clinical isolate | AZT-resistant | C8166 | p24 | - | 1 µM | 90%
C[C@H](CCC(=O)NCCCCN(CCCNC(=O)CC[C@@H](C)[C@H]1CC[C@H]2[C@@H]3[C@H](OS(=O)(=O)O)C[C@@H]4C[C@H](OS(=O)(=O)O)CC[C@]4(C)[C@H]3C[C@H](OS(=O)(=O)O)[C@]12C)C(=O)CC[C@@H](C)[C@H]1CC[C@H]2[C@@H]3[C@H](OS(=O)(=O)O)C[C@@H]4C[C@H](OS(=O)(=O)O)CC[C@]4(C)[C@H]3C[C@H](OS(=O)(=O)O)[C@]12C)[C@H]1CC[C@H]2[C@@H]3[C@H](OS(=O)(=O)O)C[C@@H]4C[C@H](OS(=O)(=O)O)CC[C@]4(C)[C@H]3C[C@H](OS(=O)(=O)O)[C@]12C | Pseudotyped recombinant replication-defective | - | U87-CD4-CCR5 + U87 | luciferase | - | 100 µg/mL | 85%
CCCCCCCCCCCCCCCCOP(=O)(OCCO[C@@H]1O[C@H](CO)[C@@H](O)[C@H](O)[C@@H]1O)OC[C@H]1O[C@@H](n2cc(C)c(=O)[nH]c2=O)C[C@@H]1N=[N+]=[N-] | LAV-Bru | - | CEM | RT activity | 22 d | 0.2 µM | 0%
CC(=O)CCC(=O)NCCCOCCOCCCNC(=O)CNC(=O)[C@H](CS)NC(=O)[C@@H](NC(=O)[C@@H](NC(=O)[C@H](CO)NC(=O)[C@@H](N)CS)C(C)C)[C@@H](C)O | BaL | - | PBMC(PHA STIM.) + PBMC | p24 | - | 0.66 µM | 34%
CCCCCCCCCCCCCCCCOP(=O)(OC[C@H]1OC(O)[C@@H](O)[C@@H](O)[C@@H]1O)OC[C@H]1O[C@@H](n2cc(C)c(=O)[nH]c2=O)C[C@@H]1N=[N+]=[N-] | LAV-Bru | - | CEM | RT activity | 22 d | 0.2 µM | 0%
CC(C)[C@H](NC(=O)[C@H](CO)NC(=O)[C@H](CS)NC(=O)CCC(=O)NCCCOCCOCCCN)C(=O)N[C@H](C(=O)N[C@@H](CS)C(=O)NCC(=O)O)[C@@H](C)O | IIIB | - | PBMC(PHA STIM.) + PBMC | p24 | - | 0.132 µM | 100%
C[C@@H](CC[C@@]1(O)O[C@H]2C[C@H]3[C@@H]4C(=O)C=C5C[C@@H](O[C@@H]6O[C@H](CO)[C@H](O[C@@H]7O[C@H](CO)[C@@H](O)[C@H](O[C@@H]8OC[C@@H](O)C(O)[C@H]8O)[C@H]7O[C@@H]7O[C@H](CO)[C@@H](O)[C@H](O)[C@H]7O)[C@H](O)[C@H]6O)CC[C@]5(C)[C@H]4CC[C@]3(C)[C@H]2[C@@H]1C)CO[C@@H]1O[C@H](CO)[C@@H](O)[C@H](O)[C@H]1O | - | - | SupT1 | luciferase / single cycle | pseudotyped | 30 µM | 80.78%
CCN(CC)C(=O)OCC1CN(C(=S)c2cc(OC)c(OC)c(OC)c2)CCN1C(=O)c1cc(OC)c(OC)c(OC)c1 | BaL | - | MDM | RT activity | - | 10 µM | 41%
CO[C@H](C[C@H](C)CO[C@@H]1O[C@H](CO)[C@@H](O)[C@H](O)[C@H]1O)C1=C(C)[C@H]2[C@H](C[C@H]3[C@@H]4CC=C5C[C@@H](O[C@@H]6O[C@H](CO)[C@H](O[C@@H]7O[C@H](CO)[C@@H](O)[C@H](O[C@@H]8OC[C@@H](O)C(O)[C@H]8O)[C@H]7O[C@@H]7O[C@H](CO)[C@@H](O)[C@H](O)[C@H]7O)[C@H](O)[C@H]6O)CC[C@]5(C)[C@H]4CC[C@@]32C)O1 | - | - | SupT1 | luciferase / single cycle | pseudotyped | 30 µM | 50.15%
COC(=O)CC(c1ccc(OC)c(OC)c1)N1C(=O)c2ccc(N)cc2C1=O | JR-FL | - | Macrophage | RT activity | - | 50 µg/mL | 81%
C[C@@H]1CO[C@]2(C[C@@H]1O[C@@H]1O[C@H](CO)[C@@H](O)[C@H](O)[C@H]1O)O[C@H]1C[C@H]3[C@@H]4CC=C5C[C@@H](O[C@@H]6O[C@H](CO)[C@H](O[C@@H]7O[C@H](CO)[C@@H](O)[C@H](O[C@@H]8OC[C@@H](O)C(O)[C@H]8O)[C@H]7O[C@@H]7O[C@H](CO)[C@@H](O)[C@H](O)[C@H]7O)[C@H](O)[C@H]6O)CC[C@]5(C)[C@H]4CC[C@]3(C)[C@H]1[C@@H]2C | - | - | SupT1 | luciferase / single cycle | pseudotyped | 30 µM | 49.17%
CCOCn1c2c(c(=O)[nH]c1=O)-c1ccccc1CC2 | IIIB | - | C8166 | - | - | 5 µM | 41%
CCCCCCCCCCCCCCCC(=O)NCC1OC(n2cnc3c(N)ncnc32)C(OP(=O)(O)OCC2OC(n3cnc4c(N)ncnc43)C(OP(=O)(O)OCCOCn3cnc4c(N)ncnc43)C2O)C1O | IIIB | - | SupT1 + Sup-T1 | syncytia | - | 100 µM | 88.5%
Cc1c2ccnc(Cl)c2cc2c3cn(C)ccc-3nc12 | CLOZOT resistant strain | - | Macrophages | p24 / ELISA | - | 1 µM | 97%
C[C@H]1CC[C@@]2(OC1)O[C@H]1C[C@H]3[C@@H]4CC=C5C[C@@H](O[C@@H]6O[C@H](CO)[C@H](O[C@@H]7O[C@H](CO)[C@@H](O)[C@H](O[C@@H]8OC[C@@H](O)C(O)[C@H]8O)[C@H]7O[C@@H]7O[C@H](CO)[C@@H](O)[C@H](O)[C@H]7O)[C@H](O)[C@H]6O)CC[C@]5(C)[C@H]4C[C@@H](O)[C@]3(C)[C@H]1[C@@H]2C | - | - | SupT1 | luciferase / single cycle | pseudotyped | 30 µM | 95.14%

3 of the rows above, restated:

smiles,strain or isolate,changes,cells,read by,setting,tested at,value
COC(=O)CC(c1ccc(OC)c(OC)c1)N1C(=O)c2ccc(N)cc2C1=O,JR-FL,-,Macrophage,RT activity,-,50 µg/mL,81%
CC(C)[C@H](NC(=O)[C@H](CO)NC(=O)[C@H](CS)NC(=O)CCC(=O)NCCCOCCOCCCN)C(=O)N[C@H](C(=O)N[C@@H](CS)C(=O)NCC(=O)O)[C@@H](C)O,IIIB,-,PBMC(PHA STIM.) + PBMC,p24,-,0.132 µM,100%
COC(=O)[C@H]1[C@@H]2C[C@@H](O[C@@H]3O[C@H](C)[C@@H](O)[C@H](N)[C@@H]3O)/C=C/C=C/C=C/C=C/C=C/C=C/C=C/[C@H](C)[C@@H](O)[C@H](C)[C@H](C)OC(=O)C[C@H](O)C[C@H](O)[C@@H](O)CC[C@H](O)C[C@H](O)C[C@](O)(C[C@@H]1O)O2,IIIB,-,H9,p24 / antigen,-,10 µg/mL,43%